Assays:
Assay in all cases: […]
Mtb LigD D162R = Mtb LigD D162R (Mycobacterium tuberculosis, UniProt P9WNV3 1-759, D162R)
Mtb LigD R198E = Mtb LigD R198E (Mycobacterium tuberculosis, UniProt P9WNV3 1-759, R198E)
Mtb LigD L580E = Mtb LigD L580E (Mycobacterium tuberculosis, UniProt P9WNV3 1-759, L580E)
Mtb LigD K579E = Mtb LigD K579E (Mycobacterium tuberculosis, UniProt P9WNV3 1-759, K579E)
Mtb LigD V194D = Mtb LigD V194D (Mycobacterium tuberculosis, UniProt P9WNV3 1-759, V194D)
Mtb LigD D522R = Mtb LigD D522R (Mycobacterium tuberculosis, UniProt P9WNV3 1-759, D522R)

Measured: binding result

B1: His-SNAP-Mtb Ku (natural protein)
chain: MRAIWTGSIAFGLVNVPVKVYSATADHDIRFHQVHAKDNGRIRYKRVCEACGEVVDYRDLARAYESGDGQMVAITDDDIASLPEERSREIEVLEFVPAADVDPMMFDRSYFLEPDSKSSKSYVLLAKTLAETDRMAIVHFTLRNKTRLAALRVKDFGKREVMMVHTLLWPDEIRDPDFPVLDQKVEIKPAELKMAGQVVDSMADDFNPDRYHDTYQEQLQELIDTKLEGGQAFTAEDQPRLLDEPEDVSDLLAKLEASVKARSKANSNVPTPP
binds: all assays above

Reference: doi:10.64898/2025.12.16.694593 (bioRxiv, 2025)
